## Primary screen of a compound library

Values are the deposited “Percent Effect”, in %. The controls that fix the scale are not given in the record; negative values are as filed. The entries come from a sample that favours strong results.

A: 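Whole-cell growth test on Mycobacterium tuberculosis, read after 4 days in a medium based on cholesterol and the lipid DPPC; the read-out is not stated. Concentration: 500 µM. Direction is inferred from retests: higher values go with more growth inhibition. Of about 18,000 compounds tested this way, about 900 (5%) reached 50% or more in at least one test.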
B: 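Phenotypic screen: M. tuberculosis growth, glucose 7H9 medium, 3 days; the read-out is not stated. Concentration: 500 µM. Higher reads as more growth inhibition (inferred: compounds with an IC50 in retests scored well above the rest). Size under these conditions: about 18,000 compounds, about 1,400 of them at 50% or above in at least one test.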

- CC1CN(C)CCN1CC(=O)N1CCc2sccc2C1 (configuration not stated) | B: 20.16%
- CNc1cc(CN(C)Cc2cccs2)ccn1 | A: 70.35%; B: 65.45%
- NCc1cccc(N2CCOCC2)c1 | A: 9.885%
- CS(=O)(=O)CC1CCCN(c2nnc(C3CC3)o2)C1 (configuration not stated) | B: 4.417%
- CCC(C)(C)NC(=O)C1CC(=O)N(CC(F)(F)F)C1 (configuration not stated) | B: 8.342%
- Cc1ncn(CC(=O)N2CCCC(O)(CO)CC2)c1C (configuration not stated) | B: -2.178%
- CCCn1cc(C(=O)NCC(F)(F)F)c(C)n1 | B: 11.52%
- Cn1c(SCC(=O)NC(N)=O)nnc1C(F)(F)F | B: -7.095%
- O=C(NCc1ccc2c(c1)OCO2)N1CCCCC1 | A: 72.65%; B: 73.65%
- CSC1(CN)CCOCC1 | A: 8.795%
- CC(C)OCCCNC(=O)CNC(=O)C1CCCCC1 | B: 3.741%
- NCc1noc(-c2ccc3c(c2)OCO3)n1 | A: 23.09%; B: 15.78%
- CN1N=C(C(=O)NC2CCc3nccn3C2)CCC1=O (configuration not stated) | B: 2.556%
- CCn1nccc1CN1CCOCC2(CCOCC2)C1 | B: 15.08%
- CNc1cccnc1CN | B: 0.9683%
- Cc1nn(C)c(C)c1CCC(=O)N1C[C@H]2CC[C@@H](C1)N2 | A: 4.762%
- CN(Cc1ccc2c(c1)OCO2)C(=O)c1cncs1 | A: 44.4%; B: 41.71%
- CCN(CCO)C(=O)c1ccn(-c2ccccc2F)n1 | A: 13.07%; B: 26.88%
- CC1CCN(C(CN)C(C)C)CC1 (configuration not stated) | A: 15.64%
- Cc1cc(NC(=O)NCCCN2CCCC2=O)no1 | A: 2.868%
- Cc1ncn(CC(=O)NCCSc2nnnn2C)c1C | A: -0.7999%
- CC(C)[C@H]1CN(c2nccc(N)n2)C[C@@H]1N | B: 13.09%

Some entries from above, unchanged:

With Cc1cc(NC(=O)NCCCN2CCCC2=O)no1 the screen gave A: 2.868%.
With CS(=O)(=O)CC1CCCN(c2nnc(C3CC3)o2)C1 (configuration not stated) the screen gave B: 4.417%.

Measurements from “University of Dundee, Small-Polar-MMV Screening Library” (2021), ChEMBL document CHEMBL3988442.